Measured values taken from publication PMC5358776, “Insight into the mechanism of action of temporin-SHa, a new broad-spectrum antiparasitic and antibacterial agent” (PLoS ONE, 2017).

Columns and labels:
[1] = tested on: Rat erythrocytes
[2] = tested on: Human THP-1 monocytes
[3] = tested on: Human HepG2
[4] = tested on: Human fibroblasts (HFF)
[5] = tested on: Human erythrocytes; test: Hemolytic assay
[6] = tested on: Human THP-1-derived macrophages; test: Cytotoxicity, Trypan blue staining
[7] = LC50 rat erythrocytes / MICGM Gram-negative bacteria
[8] = LC50 rat erythrocytes / MICGM Gram-positive bacteria
[9] = LC50 rat erythrocytes / MICGM yeasts/fungi
[10] = IC50 THP1-monocytes / MICGM Gram-negative strains
[11] = IC50 THP1-monocytes / MICGM Gram-positive strains
[12] = IC50 THP1-monocytes / MICGM yeast/fungal strains
[13] = IC50 HepG2 / MICGM Gram-negative strains
[14] = IC50 HepG2 / MICGM Gram-positive strains
[15] = IC50 HepG2 / MICGM yeast/fungal strains
[16] = IC50 fibroblasts / MICGM Gram-negative strains
[17] = IC50 fibroblasts / MICGM Gram-positive strains
[18] = IC50 fibroblasts / MICGM yeast/fungal strains
[19] = LC50 human erythrocytes / MICGM Gram-negative strains
[20] = LC50 human erythrocytes / MICGM Gram-positive strains
[21] = LC50 human erythrocytes / MICGM yeast/fungal strains
[22] = LC50 THP1-derived macrophages / MICGM Gram-negative strains
[23] = LC50 THP1-derived macrophages / MICGM Gram-positive strains
[24] = LC50 THP1-derived macrophages / MICGM yeast/fungal strains

FLKGIVGMLGKLF-NH2 [[K^3]SHa, [K^3]temporin-SHa]
Therapeutic index (T.I.) [1, 7]: 6.8
Therapeutic index (T.I.) [1, 8]: 9.3
Therapeutic index (T.I.) [1, 9]: 3.4
Therapeutic index (T.I.) [2, 10]: 12.6
Therapeutic index (T.I.) [2, 11]: 17.1
Therapeutic index (T.I.) [2, 12]: 6.2
Therapeutic index (T.I.) [3, 13]: 94.2
Therapeutic index (T.I.) [3, 14]: 127.8
Therapeutic index (T.I.) [3, 15]: 46.5
Therapeutic index (T.I.) [4, 16]: 52.6
Therapeutic index (T.I.) [4, 17]: 71.4
Therapeutic index (T.I.) [4, 18]: 26
Therapeutic index (T.I.) [5, 19]: 13.1
Therapeutic index (T.I.) [5, 20]: 17.8
Therapeutic index (T.I.) [5, 21]: 6.5
Therapeutic index (T.I.) [6, 22]: 14.5
Therapeutic index (T.I.) [6, 23]: 19.6
Therapeutic index (T.I.) [6, 24]: 7.1

FLSGIVGMLGKLF-NH2 [SHa, temporin-SHa]
Therapeutic index (T.I.) [1, 7]: 1.7
Therapeutic index (T.I.) [1, 8]: 4.2
Therapeutic index (T.I.) [1, 9]: 0.8
Therapeutic index (T.I.) [2, 10]: 8.3
Therapeutic index (T.I.) [2, 11]: 20
Therapeutic index (T.I.) [2, 12]: 3.8
Therapeutic index (T.I.) [3, 13]: 38.9
Therapeutic index (T.I.) [3, 14]: 93.3
Therapeutic index (T.I.) [3, 15]: 18
Therapeutic index (T.I.) [4, 16]: 13.9
Therapeutic index (T.I.) [4, 17]: 33.3
Therapeutic index (T.I.) [4, 18]: 6.4
Therapeutic index (T.I.) [5, 19]: 1.7
Therapeutic index (T.I.) [5, 20]: 4.2
Therapeutic index (T.I.) [5, 21]: 0.8
Therapeutic index (T.I.) [6, 22]: 4.2
Therapeutic index (T.I.) [6, 23]: 10
Therapeutic index (T.I.) [6, 24]: 1.9

Read-outs that look alike come from different tables or passages of the source. Where no end group is shown, it is not given here.
